Data published in PubChem BioAssay (NCATS).
The list shows a part of the results, in another mix than the full data. Inconclusive results are not listed. Some salts and complexes are drawn in separate pieces, as the source files them; their charges need not balance. The source made the active and inactive calls. Unless noted, calls follow the shape of the dose curve; as a rule, active = well fitted curve in the direction sought with a large enough effect; inconclusive = small, poorly fitted or top-dose-only effect, or another doubt; inactive = no such curve, though single readings can be large; an effect the other way counts as inactive or inconclusive.

Assays:
[1] = NS1 protein of Zika virus - qHTS assay to identify small molecule inhibitors in human HEK 293 cells (AID 1347053); conditions: HEK293 ZIKV MR766 infection, NS1 TR-FRET, 24 h; at 46.1 µM (top of the series) unless noted;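 also: plate controls were infected untreated cells for no effect and uninfected cells for full effect; nearly all actives have a fitted effect of over 55% in size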
Description: National Center for Advancing Translational Sciences [NCATS]
Johns Hopkins University School of Medicine
The non-structural 1 (NS1) protein of zika virus is known to associate with the viral replication complex. This cell-based TR-FRET ZIKV NS-1 assay measures the increased NS-1 protein in human HEK 293 cells after a 24-hour Zika virus infection by a TR-FRET assay readout. A decrease in the Time-resolved fluorescence energy transfer (TR-FRET) signal in this assay by small molecule treatment indicates an inhibitory effect of the small molecule on the expression of Zika virus NS1 correlating with Zika virus replication.
HEK 293 cells were cultured in EMEM (ATCC, Cat. # 30-2003) medium with 10% fetal bovine serum (GE healthcare Life Sciences, Cat. # SH30071.03), and 1% Pen/Strep (Gibco, Cat. # 15140-122). Cells were seeded in the assay plate and incubated at 37 C with 5% CO2 for 20 hours. Compounds were added to cells and incubated for one hour before addition of ZIKV MR766 strain solution to cells (MOI = 0.5). After an incubation at 37 C for 24 hours, the reagent mixture of TR-FRET ZIKV NS1 assay using two anti-ZIKV NS1 antibodies was added to assay plates. The TR-FRET signals in assay plates were measured using an Envision plate reader (PerkinElmer). Data were normalized by using the cell-containing wells without ZIKV as a negative control (0% NS-1) and wells containing ZIKV infected cells as a positive control (100% NS-1 level).

[2] = qHTS for Inhibitors of the Functional Ribonucleoprotein Complex (vRNP) of Lassa (LASV) Arenavirus: Viability assay - alamar blue signal for LASV Primary Screen (AID 1347083; calls by dose curve; tested in HEK293 reporter line; also: % is scaled to controls: 0 for no effect and ±100 for the full control effect; nearly all actives have a fitted effect of over 80% in size); conditions: cell viability, alamar blue fluorescence (LASV minigenome counter-screen); at 57.5 µM (top of the series) unless noted
[3] = test system: Zika virus NS2B-NS3 protease; assay: Primary screen GU AMC qHTS for Zika virus inhibitors (AID 1347154); conditions: Zika NS2B-NS3 unlinked protease, AMC fluorogenic substrate; at 54.1 µM (top of the series) unless noted;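 also: 0% = no-inhibitor control and -100% = no-enzyme control; nearly all actives have a fitted effect of over 70% in size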
In short: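 Unlinked Zika NS2B hydrophilic domain/NS3 protease domain noncovalent complex (25 nM final) in 10 mM Tris-HCl pH 8.0, 0.01% Tween 20, with AMC peptide substrate. Fluorescence (ex 340, em 450 nm) change over 15 min, room temperature; percent inhibition fitted to 4-parameter Hill equation.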

[4] = test system: Zika virus NS2B-NS3 protease (linked construct); assay: Primary screen NINDS Rhodamine qHTS for Zika virus inhibitors (AID 1347160); conditions: purified NS2B-NS3 protease, Rhodamine110 substrate fluorescence; at 57.1 µM (top of the series) unless noted; also: % is scaled to controls: 0 for no effect and ±100 for the full control effect; nearly all actives have a fitted effect of over 55% in size
In short: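 Single-chain NS2B-NS3 protease, 25 nM, pH 8.0; compounds preincubated 15 min. Activity: Rhodamine110 release from 1.5 microM substrate over 15 min, room temperature, data fitted to 4-parameter Hill.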

[5] = Primary qHTS for inhibitors of SARS-S pseudo-typed particle cell entry (AID 1479145; calls by dose curve; also: % is scaled to controls: 0 for no effect and ±100 for the full control effect; nearly all actives have a fitted effect of over 45% in size); conditions: SARS-S pseudotyped particle cell entry, luciferase reporter; at 57.1 µM (top of the series)
[6] = Primary qHTS for Huh7 cytotoxicity: counterscreen for inhibitors of MERS-S pseudotyped particle cell entry (AID 1479147; calls by dose curve; as to activity change, negative = cytotoxicity: % is scaled to controls: 0 for no effect and ±100 for the full control effect); conditions: cell viability read-out; activity change, negative = cytotoxicity: at 57.1 µM (top of the series)
[7] = qHTS for Inhibitors of the Functional Ribonucleoprotein Complex (vRNP) of Lassa (LASV) Arenavirus: LASV Primary Screen - GLuc reporter signal (AID 1347082; calls by dose curve; tested in HEK293 reporter line; also: % is scaled to controls: 0 for no effect and ±100 for the full control effect; nearly all actives have a fitted effect of over 60% in size); conditions: LASV minigenome vRNP, Gaussia luciferase reporter; at 57.5 µM (top of the series) unless noted
[8] = qHTS for Inhibitors of the Functional Ribonucleoprotein Complex (vRNP) of Lymphocytic Choriomeningitis Arenaviruses (LCMV): Viability assay - alamar blue signal for LCMV Primary Screen (AID 1347085; calls by dose curve; tested in HEK293 reporter line; also: % is scaled to controls: 0 for no effect and ±100 for the full control effect; nearly all actives have a fitted effect of over 80% in size); conditions: alamar blue viability counter-screen, LCMV vRNP screen cells; at 57.5 µM (top of the series) unless noted
[9] = target: Nucleoprotein (Lymphocytic choriomeningitis virus (strain Armstrong)) (UniProt P09992); assay: qHTS for Inhibitors of the Functional Ribonucleoprotein Complex (vRNP) of Lymphocytic Choriomeningitis Arenaviruses (LCMV): LCMV Primary Screen - GLuc reporter signal (AID 1347086; calls by dose curve; also: % is scaled to controls: 0 for no effect and ±100 for the full control effect; nearly all actives have a fitted effect of over 70% in size); conditions: LCMV minigenome vRNP cell assay, Gaussia luciferase reporter; at 57.5 µM (top of the series) unless noted
[10] = test system: Zika virus NS2B-NS3 protease (unlinked complex); assay: Primary screen GU Rhodamine qHTS for Zika virus inhibitors: Unlinked NS2B-NS3 protease assay (AID 1347159); conditions: Recombinant ZIKV NS2B-NS3 protease, Rhodamine110 substrate fluorescence; at 57.1 µM (top of the series); also: % is scaled to controls: 0 for no effect and ±100 for the full control effect; nearly all actives have a fitted effect of over 60% in size
Description: Avindra Nath, Ph.D., National Institute of Neurological Disorders and Stroke (NINDS), Bethesda, MD
Radhakrishnan Padmanabhan, Ph.D., Georgetown University (GU), Washington D.C.
Zika Virus causes congenital defects, including microcephaly and is associated with Guillain-Barre syndrome, eningoencephalitis and myelitis in infected adult. […] Using a target-based approach, we hope to establish a screening paradigm to uncover novel, cell-active NS2B-NS3 protease (Zika Virus) specific inhibitors from NCATS' collection of small molecules using qHTS.
Four assay panel was created to identify potential Zika Virus inhibitors. […]
Briefly, 3 microL of enzyme (25 nM final concentration), in assay buffer (10 mM Tris-HCl pH 8.0 with 0.01% Tween 20) were dispensed into a 1,536-well solid-bottom black plate (Greiner Bio One, Monroe, NC). […] Plates were then immediately read on a ViewLux High-throughput CCD imager (PerkinElmer, Waltham, MA) equipped with FITC fluorescence optics (480(20) nm excitation, 540(25) nm emission), then incubated (room temperature, protected from light) for 15 minutes (~15% conversion). The change in fluorescence intensity over the 15-minute reaction period was normalized against no-inhibitor and no-enzyme controls and the resulting percent inhibition data were fitted to a 4-parameter Hill equation. […]

CCOP(=O)(CC)Oc1ccc([N+](=O)[O-])cc1 (stereo not drawn)
inactive: activity change, negative = inhibition [1] -16.2% | activity change, negative = reduced viability [2] -18.9% | activity change, negative = inhibition [3] 2.12% | activity change, negative = inhibition [4] 10.1% | activity change, negative = inhibition [5] -13.4% | activity change, negative = cytotoxicity [6] 2.62%

C/C1=C2N=C(/C=C3N=C(/C(C)=C4\[N-][C@@](C)([C@@H]5N=C1[C@](C)(CCC(=O)NC[C@@H](C)OP(=O)([O-])O[C@H]1[C@@H](O)[C@@H](n6cnc7cc(C)c(C)cc76)O[C@@H]1CO)[C@H]5CC(N)=O)[C@@](C)(CC(N)=O)[C@@H]4CCC(N)=O)[C@@](C)(CC(N)=O)[C@@H]\3CCC(N)=O)C(C)(C)[C@@H]/2CCC(N)=O.[C-]#N.[Co+3]
inactive: activity change, negative = inhibition [1] 8.66% | activity change, negative = inhibition [7] -4.82% | activity change, negative = reduced viability [2] -29.5% | activity change, negative = lower viability [8] -30.3% | activity change, negative = inhibition [9] -3.53% | activity change, negative = inhibition [3] -10.9% | activity change, negative = inhibition [5] -46.7% | outcome [6]

CC(C)OP(=O)(F)OC(C)C
inactive: activity change, negative = inhibition [5] -25.4% | outcome [6]

Cc1cccc([N+](=O)[O-])c1[N+](=O)[O-]
inactive: activity change, negative = inhibition [1] 3.19% [at 92.8 µM] | activity change, negative = inhibition [7] -19.4% [at 115 µM] | activity change, negative = reduced viability [2] -6.38% [at 115 µM] | activity change, negative = lower viability [8] 12.8% [at 115 µM] | activity change, negative = inhibition [9] 11.5% [at 115 µM]

O=[N+]([O-])c1cccc([N+](=O)[O-])c1
inactive: activity change, negative = inhibition [1] -28.3% [at 92.8 µM] | activity change, negative = inhibition [3] -16.6% [at 104 µM] | activity change, negative = inhibition [5] -9.48% | activity change, negative = cytotoxicity [6] 1.73%

C/C1=C2N=C(/C=C3N=C(/C(C)=C4\N=C(C(CC(N)=O)C4(C)CCC(=O)NCC(C)OP(=O)([O-])OC4C(CO)OC(n5cnc6cc(C)c(C)cc65)C4O)C4(C)N=C1C(CCC(N)=O)C4(C)CC(N)=O)C(CCC(N)=O)C\3(C)C)C(CCC(N)=O)C/2(C)CC(N)=O.[C-]#N.[Co] (stereo not drawn)
inactive: activity change, negative = inhibition [10] 1.94% | activity change, negative = inhibition [4] 2.71% [at 33.1 µM]

CC1=C2[N-][C@@](C)([C@@H]3N=C(C(C)=C4N=C(C=C5N=C1[C@@](C)(CC(N)=O)[C@H]5CCC(N)=O)C(C)(C)[C@H]4CCC(N)=O)[C@](C)(CCC(=O)NC[C@@H](C)OP(=O)([O-])O[C@H]1[C@@H](O)[C@@H](n4cnc5cc(C)c(C)cc54)O[C@H]1CO)[C@H]3CC(N)=O)[C@@](C)(CC(N)=O)[C@@H]2CCC(N)=O.[C-]#N.[Co+3]
inactive: activity change, negative = inhibition [1] 3.91% [at 20.1 µM] | activity change, negative = inhibition [7] -4.89% | activity change, negative = reduced viability [2] -26.1% | activity change, negative = inhibition [9] -14.8% | activity change, negative = inhibition [3] 0.793% [at 25.8 µM]

OCCSCCO
inactive: activity change, negative = inhibition [1] 3.4% | activity change, negative = inhibition [7] 7.03% | activity change, negative = reduced viability [2] 1.02% | activity change, negative = lower viability [8] -3.6% | activity change, negative = inhibition [9] -2.09% | activity change, negative = inhibition [3] 1.36%
